What was measured:
[1] = test system: Rattus norvegicus; assay: Analgesic activity in rat assessed as reaction time required for tail flicking response at 2 ug/kg, intracerebrally after 3 hrs by tail-flicking reaction method
[2] = test system: Rattus norvegicus; assay: Analgesic activity in rat assessed as reaction time required for tail flicking response at 1.2 ug/kg, intracerebrally after 4 hrs by tail-flicking reaction method
[3] = test system: Rattus norvegicus; assay: Analgesic activity in rat assessed as reaction time required for tail flicking response at 2 ug/kg, intracerebrally after 2 hrs by tail-flicking reaction method
[4] = test system: Rattus norvegicus; assay: Analgesic activity in rat assessed as reaction time required for tail flicking response at 2 ug/kg, intracerebrally after 1 hr by tail-flicking reaction method
[5] = test system: Mus musculus; assay: Analgesic activity in mouse assessed as reaction time required for tail flicking at 3.2 ug/kg, intracerebrally after 2.5 hrs by light radiation method
[6] = test system: Mus musculus; assay: Analgesic activity in mouse assessed as reaction time required for tail flicking at 2.2 ug/kg, intracerebrally after 1 hr by light radiation method
[7] = test system: Mus musculus; assay: Analgesic activity in mouse assessed as reaction time required to elicit jumping or hind paw licking at 1.5 ug/kg, intracerebrally after 4 hrs by hot plate method
[8] = test system: Mus musculus; assay: Analgesic activity in mouse assessed as reaction time required to elicit jumping or hind paw licking at 3 ug/kg, intracerebrally after 2.5 hrs by hot plate method
[9] = test system: Mus musculus; assay: Analgesic activity in mouse assessed as reaction time required for tail flicking at 2.7 ug/kg, intracerebrally after 1 hr by light radiation method
[10] = test system: Mus musculus; assay: Analgesic activity in mouse assessed as reaction time required for tail flicking at 2.7 ug/kg, intracerebrally after 2.5 hrs by light radiation method
[11] = test system: Mus musculus; assay: Analgesic activity in mouse assessed as reaction time required for tail flicking at 3.2 ug/kg, intracerebrally after 4 hrs by light radiation method
[12] = test system: Mus musculus; assay: Analgesic activity in mouse assessed as reaction time required to elicit jumping or hind paw licking at 1 ug/kg, intracerebrally after 0.5 hrs by hot plate method
[13] = test system: Mus musculus; assay: Analgesic activity in mouse assessed as reaction time required for tail flicking at 3.2 ug/kg, intracerebrally after 3.3 hrs by light radiation method
[14] = test system: Mus musculus; assay: Analgesic activity in mouse assessed as reaction time required for tail flicking at 2.7 ug/kg, intracerebrally after 4 hrs by light radiation method
[15] = test system: Mus musculus; assay: Analgesic activity in mouse assessed as reaction time required to elicit jumping or hind paw licking at 3 ug/kg, intracerebrally after 1.5 hrs by hot plate method
[16] = test system: Mus musculus; assay: Analgesic activity in mouse assessed as reaction time required to elicit jumping or hind paw licking at 1 ug/kg, intracerebrally after 2.5 hrs by hot plate method
[17] = test system: Mus musculus; assay: Analgesic activity in mouse assessed as reaction time required for tail flicking at 2.2 ug/kg, intracerebrally after 3.3 hrs by light radiation method
[18] = test system: Rattus norvegicus; assay: Analgesic activity in rat assessed as reaction time required for tail flicking response at 2 ug/kg, intracerebrally after 4 hrs by tail-flicking reaction method
[19] = test system: Rattus norvegicus; assay: Analgesic activity in rat assessed as reaction time required for tail flicking response at 1.2 ug/kg, intracerebrally after 3 hrs by tail-flicking reaction method
[20] = test system: Mus musculus; assay: Analgesic activity in mouse assessed as reaction time required to elicit jumping or hind paw licking at 0.5 ug/kg, intracerebrally after 1.5 hrs by hot plate method
[21] = test system: Mus musculus; assay: Analgesic activity in mouse assessed as reaction time required to elicit jumping or hind paw licking at 1.5 ug/kg, intracerebrally after 2.5 hrs by hot plate method
[22] = test system: Mus musculus; assay: Analgesic activity in mouse assessed as reaction time required for tail flicking at 2.7 ug/kg, intracerebrally after 3.3 hrs by light radiation method
[23] = test system: Rattus norvegicus; assay: Analgesic activity in rat assessed as reaction time required for tail flicking response at 1.2 ug/kg, intracerebrally after 1 hr by tail-flicking reaction method
[24] = test system: Mus musculus; assay: Analgesic activity in mouse assessed as reaction time required for tail flicking at 3.2 ug/kg, intracerebrally after 1 hr by light radiation method
[25] = test system: Mus musculus; assay: Analgesic activity in mouse assessed as reaction time required for tail flicking at 2.2 ug/kg, intracerebrally after 4 hrs by light radiation method
[26] = test system: Mus musculus; assay: Analgesic activity in mouse assessed as reaction time required to elicit jumping or hind paw licking at 0.5 ug/kg, intracerebrally after 2.5 hrs by hot plate method
[27] = test system: Mus musculus; assay: Analgesic activity in mouse assessed as reaction time required to elicit jumping or hind paw licking at 0.5 ug/kg, intracerebrally after 0.5 hrs by hot plate method
[28] = test system: Mus musculus; assay: Analgesic activity in mouse assessed as reaction time required to elicit jumping or hind paw licking at 3 ug/kg, intracerebrally after 4 hrs by hot plate method
[29] = test system: Mus musculus; assay: Analgesic activity in mouse assessed as reaction time required for tail flicking at 2.2 ug/kg, intracerebrally after 2.5 hrs by light radiation method
[30] = test system: Mus musculus; assay: Analgesic activity in mouse assessed as reaction time required to elicit jumping or hind paw licking at 1.5 ug/kg, intracerebrally after 0.5 hrs by hot plate method
[31] = test system: Rattus norvegicus; assay: Analgesic activity in rat assessed as reaction time required for tail flicking response at 1.2 ug/kg, intracerebrally after 2 hrs by tail-flicking reaction method
[32] = test system: Mus musculus; assay: Analgesic activity in mouse assessed as reaction time required to elicit jumping or hind paw licking at 1 ug/kg, intracerebrally after 1.5 hrs by hot plate method
[33] = test system: Mus musculus; assay: Analgesic activity in mouse assessed as reaction time required to elicit jumping or hind paw licking at 1.5 ug/kg, intracerebrally after 1.5 hrs by hot plate method
[34] = test system: Mus musculus; assay: Analgesic activity in mouse assessed as reaction time required to elicit jumping or hind paw licking at 3 ug/kg, intracerebrally after 0.5 hrs by hot plate method
[35] = test system: Carassius carassius; assay: Toxicity against Carassius carassius at 8.5 ug/gold fish, intramuscular; settings: in vivo, im
[36] = test system: Carassius carassius; assay: Toxicity against Carassius carassius at 0.5 ug/gold fish, intramuscular; settings: in vivo, im
[37] = test system: Carassius carassius; assay: Toxicity against Carassius carassius at 3 ug/gold fish, intramuscular; settings: in vivo, im
[38] = test system: Carassius carassius; assay: Toxicity against Carassius carassius at 1 ug/gold fish, intramuscular; settings: in vivo, im

Q: For `CSCC[C@@H]1NC(=O)[C@H](CC(C)C)NC(=O)[C@H](CCCNC(=N)N)NC(=O)[C@H](CO)NC(=O)[C@@H]2CSSC[C@@H]3NC(=O)[C@H](CO)NC(=O)CNC(=O)[C@H]([C@@H](C)O)NC(=O)[C@H](CSSC[C@H](N)C(=O)N[C@@H](CCCCN)C(=O)NCC(=O)N[C@@H](CCCCN)C(=O)NCC(=O)N[C@@H](C)C(=O)N[C@@H](CCCCN)C(=O)N2)NC(=O)[C@H](CSSC[C@@H](C(=O)O)NC(=O)[C@H](CCCCN)NC(=O)CNC(=O)[C@H](CO)NC(=O)[C@H](CCCNC(=N)N)NC3=O)NC(=O)[C@H](CC(=O)O)NC(=O)[C@H](Cc2ccc(O)cc2)NC1=O` [listing 1 of 2 here], which Activity [1] is on record?
A: 3.1 s

Q: And the Activity [2]?
A: 2.8 s

Q: And the Activity [3]?
A: 3 s

Q: What about the Activity [4] of the same compound?
A: 2.5 s

Q: And the Activity [5]?
A: 12.9 s

Q: What about the Activity [6] of the same compound?
A: 14 s

Q: What about the Activity [7] of the same compound?
A: 19.6 s

Q: And the Activity [8]?
A: 40.6 s

Q: What about the Activity [9] of the same compound?
A: 12.1 s

Q: What about the Activity [10] of the same compound?
A: 11.9 s

Q: And the Activity [11]?
A: 11.9 s

Q: What about the Activity [12] of the same compound?
A: 36 s

Q: What about the Activity [13] of the same compound?
A: 11.8 s

Q: What about the Activity [14] of the same compound?
A: 9 s

Q: And the Activity [15]?
A: 43 s

Q: What about the Activity [16] of the same compound?
A: 12 s

Q: What about the Activity [17] of the same compound?
A: 8.6 s

Q: What about the Activity [18] of the same compound?
A: 2.9 s

Q: What about the Activity [19] of the same compound?
A: 2.9 s

Q: And the Activity [20]?
A: 12.6 s

Q: And the Activity [21]?
A: 23.2 s

Q: What about the Activity [22] of the same compound?
A: 12 s

Q: And the Activity [23]?
A: 2.8 s

Q: And the Activity [24]?
A: 13.4 s

Q: What about the Activity [25] of the same compound?
A: 7.7 s

Q: What about the Activity [26] of the same compound?
A: 11.4 s

Q: What about the Activity [27] of the same compound?
A: 20 s

Q: What about the Activity [28] of the same compound?
A: 37 s

Q: And the Activity [29]?
A: 12 s

Q: What about the Activity [30] of the same compound?
A: 46.4 s

Q: What about the Activity [31] of the same compound?
A: 3.4 s

Q: And the Activity [32]?
A: 13.8 s

Q: What about the Activity [33] of the same compound?
A: 26 s

Q: What about the Activity [34] of the same compound?
A: 55.2 s

Q: For `CSCC[C@@H]1NC(=O)[C@H](CC(C)C)NC(=O)[C@H](CCCNC(=N)N)NC(=O)[C@H](CO)NC(=O)[C@@H]2CSSC[C@@H]3NC(=O)[C@H](CO)NC(=O)CNC(=O)[C@H]([C@@H](C)O)NC(=O)[C@H](CSSC[C@H](N)C(=O)N[C@@H](CCCCN)C(=O)NCC(=O)N[C@@H](CCCCN)C(=O)NCC(=O)N[C@@H](C)C(=O)N[C@@H](CCCCN)C(=O)N2)NC(=O)[C@H](CSSC[C@@H](C(=O)O)NC(=O)[C@H](CCCCN)NC(=O)CNC(=O)[C@H](CO)NC(=O)[C@H](CCCNC(=N)N)NC3=O)NC(=O)[C@H](CC(=O)O)NC(=O)[C@H](Cc2ccc(O)cc2)NC1=O` [listing 2 of 2 here], which Activity [35] is on record?
A: 100%

Q: And the Activity [36]?
A: 60%

Q: And the Activity [37]?
A: 100%

Q: What about the Activity [38] of the same compound?
A: 80%

— ChEMBL document CHEMBL1150695, “The synthesis of SO-3, a conopeptide with high analgesic activity derived from Conus striatus” (2003)
